Test results reported in ChEMBL document CHEMBL1255439 (2010).
Calls of active or inactive are those of the source.

Assays:
[1] = test system: Burkholderia pseudomallei; experiment: Antibacterial activity against Burkholderia pseudomallei 1026b infected in BALB/c mouse assessed as increase in survival rate at 25 mg/kg, ip administered 6 hrs postinfection at 12 hrs interval for 3 days measured on day 60 in presence of IFN-gamma-harboring cationic liposome-DNA complex
[2] = test system: Burkholderia pseudomallei; experiment: Antibacterial activity against Burkholderia pseudomallei 1026b infected in BALB/c mouse assessed as decrease in bacterial burden in liver at 25 mg/kg, ip administered 6 hrs postinfection at 12 hrs interval for 3 days measured after 48 hrs of bacterial infection in presence of 20 uL …
[3] = test system: Burkholderia pseudomallei; experiment: Antibacterial activity against Burkholderia pseudomallei 1026b infected in BALB/c mouse assessed as decrease in bacterial burden in spleen at 25 mg/kg, ip administered 6 hrs postinfection at 12 hrs interval for 3 days measured after 48 hrs of bacterial infection in presence of 20 uL …
[4] = test system: Burkholderia pseudomallei; experiment: Antibacterial activity against Burkholderia pseudomallei 1026b infected in BALB/c mouse assessed as increase in survival rate at 25 mg/kg, ip administered 6 hrs postinfection at 12 hrs interval for 3 days measured on day 20 in presence of IFN-gamma-harboring cationic liposome-DNA complex
[5] = test system: Burkholderia pseudomallei; experiment: Antibacterial activity against Burkholderia pseudomallei 1026b infected in BALB/c mouse assessed as decrease in bacterial burden in lung at 25 mg/kg, ip administered 6 hrs postinfection at 12 hrs interval for 3 days measured after 48 hrs of bacterial infection in presence of 20 uL …

CC(C)(O/N=C(\C(=O)N[C@@H]1C(=O)N2C(C(=O)[O-])=C(C[n+]3ccccc3)CS[C@H]12)c1csc(N)n1)C(=O)O [CEFTAZIDIME]
active: Activity [1] | inhibition [2] | inhibition [3] | Activity [4] | inhibition [5]
